Measured values from several laboratories, pooled; numbers as filed in NIAID ChemDB.

Shared fields: tests in culture; species: Mycobacterium avium; endpoint: MIC

Lines come from different laboratories, so protocols vary.

compound | setting | strain or isolate | value
O=c1oc2ccc(F)cc2c(=S)n1-c1ccc(C(F)(F)F)cc1 | 21 d | MY330/88 | 32 µM
CCOc1ccccc1NC(=O)OCC[NH+]1CCCC1 |  | MY330/88 | >1000 µM
S=c1oc2ccc(Br)cc2c(=S)n1-c1ccc(Cl)cc1 | 21 d | MY330/88 | 32 µM
O=c1oc2ccc(Cl)cc2c(=O)n1-c1ccccc1 |  | CNCTC MY330/88 | 16 µM
COc1ccc2oc(=O)n(-c3cccc(Cl)c3)c(=S)c2c1 | 21 d | MY330/88 | 62.5 µM
CCOC(=O)c1ccc(-n2c(=O)oc3cc(Cl)ccc3c2=O)cc1 |  | CNCTC MY330/88 | 16 µM
CCOc1cccc(NC(=O)OCC[NH+]2CCCC2)c1 |  | MY330/88 | 1000 µM
O=c1oc2ccccc2c(=O)n1-c1ccc(F)cc1 |  | CNCTC MY330/88 | 125 µM
Cc1ccc2oc(=S)n(-c3ccc(Br)cc3)c(=S)c2c1 | 14 d | MY330/88 | 4 µM
CC(C)N=c1cc2n(-c3ccc(Cl)cc3)c3ccccc3nc-2cc1Nc1ccc(Cl)cc1 |  | 18698 | 0.7 µg/mL
CCCOc1ccc(NC(=O)OCCN(C)C)cc1 |  | MY330/88 | 500 µM
Cc1ccc2oc(=O)n(-c3cccc([N+](=O)[O-])c3)c(=O)c2c1 |  | CNCTC MY330/88 | 32 µM
CCCCCCCCOc1ccc(NC(=O)OCCN2CCCCC2)cc1 |  | MY330/88 | 16 µM
COc1ccc(-n2c(=O)oc3ccc([N+](=O)[O-])cc3c2=O)cc1 |  | CNCTC MY330/88 | >1000 µM
Fc1cccc(-n2c(=S)oc3ccc(Br)cc3c2=S)c1 | 21 d | MY330/88 | 32 µM
CCCOc1ccccc1NC(=O)OCCN1CCCCCC1 |  | MY330/88 | 125 µM

For reference, 2 entries again:

compound	setting	strain or isolate	value
O=c1oc2ccccc2c(=O)n1-c1ccc(F)cc1		CNCTC MY330/88	125 µM
S=c1oc2ccc(Br)cc2c(=S)n1-c1ccc(Cl)cc1	21 d	MY330/88	32 µM

Blank or dashed fields: not listed here.